# Biological target: T1, Enoyl-[acyl-carrier-protein] reductase [NADH] (Burkholderia pseudomallei, UniProt Q3JG55)
# T1 sequence (Q3JG55 whole entry): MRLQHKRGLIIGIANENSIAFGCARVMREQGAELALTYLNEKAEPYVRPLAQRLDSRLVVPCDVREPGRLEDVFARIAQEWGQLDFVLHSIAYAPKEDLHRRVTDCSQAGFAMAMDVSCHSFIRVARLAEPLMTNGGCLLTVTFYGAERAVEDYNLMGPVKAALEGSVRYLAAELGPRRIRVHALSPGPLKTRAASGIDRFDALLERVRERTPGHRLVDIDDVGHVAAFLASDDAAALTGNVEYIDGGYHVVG
# Conditions: pH 8; 25 °C
structure (smiles),measurement,value
CCc1ccc(Oc2ccccc2)c(O)c1 [PT01],Ki,32 nM

# — BindingDB's records for doi:10.1021/acs.biochem.6b01048 (Stony Brook University, 2017)
